Pooled drug test results. Numbers come from NIAID ChemDB, via PubChem.

All rows: whole-cell or culture tests; agent: Human cytomegalovirus

ECn: concentration that inhibits the pathogen or its effect by n%. Neighbouring rows are from separate reports. Inhibition is in % at the dose shown (toxicity tests: loss of growth or viability). An empty or dashed field is not shown.

compound,strain or isolate,cell line,read by,measure,tested at,value
O[C@@H]1[C@H](O)CO[C@H]1n1c(Cl)nc2cc(Cl)c(Cl)cc21,TOWNE,HFF,virus yield,EC90,-,0.41 µM
O=C(NCc1ccc(Cl)cc1)c1c[nH]c2ccc(CCCO)cc2c1=O,PHO,-,plaque count,EC50,-,0.7 µM
Nc1nc2c(ncn2C=C2CC2CO)c(=O)[nH]1,VR4990 (ganciclovir-resistant),-,plaque count,EC90,-,2.6 µM
Nc1nc2c(ncn2COC(CO)CO)c(=O)[nH]1,C4 (BDCRB-resistant),HFF,virus yield,EC90,-,1.6 µM
OC[C@H]1O[C@@H](n2c(Cl)nc3cc(Cl)c(Cl)cc32)[C@H](O)[C@@H]1O,Recombinant C4 (D341E),-,virus yield,EC50,-,<39 µM
O=C(NCc1ccc(Cl)cc1)c1c[nH]c2ccc(CCCO)cc2c1=O,GDGrP53,-,plaque count,EC90,-,2.8 µM
Brc1ccc(Nc2ncnc3ccccc23)cc1,AD169-GFP,HFF,plaque count,inhibition,1.1 µM,7%
Nc1nc2c(ncn2COC(CO)CO)c(=O)[nH]1,AD169,HFF,virus yield,EC90,-,1.2 µM
Cn1cc(C(=O)NCc2ccc(Cl)cc2)c(=O)c2cc(CN3CCOCC3)ccc21,NE,HFF,plaque count,inhibition,5.9 µM,90%
Nc1nc2c(ncn2[C@@H]2C[C@H](CO)[C@H]2CO)c(=O)[nH]1,Towne (ganciclovir- foscarnet-susceptible),MRC-5,plaque count,EC75,-,10.97 µM
CCCCCCCCCCCCCCCCCCOCCOP(=O)(O)CO[C@H](CO)Cn1ccc(N)nc1=O,GDGP53 (drug-resistant mutant),MRC-5,plaque count,EC50,-,0.02 µM
Cn1cc(C(=O)NCc2ccc(Cl)cc2)c(=O)c2cc(CN3CCOCC3)ccc21,DAVIS,HFF,plaque count,EC90,-,3 µM
Nc1ccn(C[C@H]2COP(=O)(O)CO2)c(=O)n1,PC92 (ganciclovir- foscarnet-susceptible),MRC-5,plaque count,EC75,-,0.67 µM
Nc1ncnc2c1ncn2[C@@H]1O[C@H](CO)[C@@H](O)[C@@H]1O,-,HEL,plaque count,inhibition,10 µM,35.3%
Nc1nc2c(ncn2COC(CO)CO)c(=O)[nH]1,AD169,MRC-5,hybridisation,EC50,-,0.53 µM
OC[C@H]1O[C@@H](n2c(Br)nc3cc(Cl)c(Cl)cc32)[C@H](O)[C@@H]1O,TOWNE,HFF,virus yield,EC90,-,0.9 µM
Nc1nc2c(ncn2COCCO)c(=O)[nH]1,-,HEL,plaque count,inhibition,20 µM,35%
COc1cccc(N2CCN(C3=Nc4c(F)cccc4[C@H](CC(=O)O)N3c3cc(C(F)(F)F)ccc3OC)CC2)c1,Clinical isolate 13,-,plaque count,EC50,-,0.0023 µM
OC[C@@H]1O[C@@H](n2c(Cl)nc3cc(Cl)c(Cl)cc32)[C@H](O)[C@@H]1O,TOWNE,HFF,virus yield,EC90,-,5.8 µM
Nc1ccn(C[C@@H](CO)OCP(=O)(O)O)c(=O)n1,PAAR,MRC-5,plaque count,EC75,-,0.96 µM
O=C(NCc1ccc(Cl)cc1)c1c[nH]c2ccc(C#CCO)cc2c1=O,GDGrP53,-,plaque count,EC90,-,3 µM
OC[C@H]1O[C@@H](n2c(Br)nc3cc(Cl)c(Cl)cc32)[C@H](O)[C@@H]1O,9330REC5 (HIS520GLU),MRC-5,hybridisation,EC50,-,0.7 µM
Nc1ccn(C[C@@H](CO)OCP(=O)(O)O)c(=O)n1,C8805/37-1-1 (drug-resistant mutant),MRC-5,plaque count,EC50,-,0.84 µM
OC[C@H]1O[C@@H](n2c(Br)nc3cc(Cl)c(Cl)cc32)[C@H](O)[C@@H]1O,TOWNE,HFF,virus yield,EC90,-,0.45 µM
CCCCCCCCCCCCCCCCOCCCOP(=O)(O)CO[C@H](CO)Cn1ccc(N)nc1=O,C8708/17-1-1,MRC-5,plaque count,EC50,-,0.001 µM
O=C(O)P(=O)(O)O,PC92 (ganciclovir- foscarnet-susceptible),MRC-5,plaque count,EC75,-,154 µM

The last 2 rows once more:

{"compound": "CCCCCCCCCCCCCCCCOCCCOP(=O)(O)CO[C@H](CO)Cn1ccc(N)nc1=O", "strain or isolate": "C8708/17-1-1", "cell line": "MRC-5", "read by": "plaque count", "measure": "EC50", "value": "0.001 µM"}
{"compound": "O=C(O)P(=O)(O)O", "strain or isolate": "PC92 (ganciclovir- foscarnet-susceptible)", "cell line": "MRC-5", "read by": "plaque count", "measure": "EC75", "value": "154 µM"}